Compound potency records, mixed from different reports. Data source: NIAID ChemDB in PubChem.

All rows: cytotoxicity tests; cell line: Huh7; endpoint: CC50

CCn: concentration that lowers growth or viability of the cells by n%. Blank or dashed fields: not listed here. a–b is a range or a potency band. Rows are shuffled and stem from different studies.

| SMILES | read by | value |
|---|---|---|
| CCNc1ncnc2ccc(-c3ccc(F)cc3)cc12 |  | >20 µM |
| COc1ccc(-c2cnc3nc(N)nc(N4CCN(C(=O)Nc5ccc(F)c(Cl)c5)CC4)c3n2)cc1OC | ATP | <10 µM |
| Nc1nc(C2CC2)c2nc(-c3ccc(N4CCCC4=O)cc3)ccc2n1 |  | 10–20 µM |
| CCOc1nc(N)nc2ccc(-c3ccc(C(=O)NCC(C)C)cc3)nc12 |  | >20 µM |
| Cc1ccc(Sc2ccc(F)cc2)c(Nc2ncnc3nc(C(C)C)ccc23)c1 | MTT | 4.8 µM |
| COc1cc(Cc2cnc(/N=C3\C(=O)N(CN4CCN(c5cccc(Cl)c5)CC4)c4ccc(F)cc43)nc2N)cc(OC)c1OC |  | <50 µg/mL |
| N[C@H](C(=O)N1CCC[C@H]1C(=O)Nc1ccc(C#Cc2ccc(NC(=O)[C@@H]3CCCN3C(=O)[C@@H](N)c3ccccc3)cc2)cc1)c1ccccc1 | resazurin | >10 µM |
| COc1ccc(-c2cnc3nc(N)nc(N4CCN(C(=O)/C=C/c5ccccc5)CC4)c3n2)cc1OC | ATP | <10 µM |
| C1=C[C@@H](c2ncc(-c3ccc(-c4ccc(-c5cnc([C@@H]6C=CCN6)[nH]5)cc4)cc3)[nH]2)NC1 | ATP | 46.8 µM |
| Cc1ccc(Sc2ccc(O)cc2)c(Nc2ncnc3nc(C)ccc23)c1 | MTT | >100 µM |
| CONC(=O)c1ccc(-c2ccc3nc(N)nc(OC(C)C)c3n2)cc1 |  | >20 µM |
| N#Cc1c(Nc2ccc(Cl)cn2)s[nH]c1=O |  | >50 µM |
| Nc1ncnc2c1ncn2[C@@H]1O[C@H](CO)[C@@H](F)[C@@H]1F |  | >10 µM |
| CCOc1nc(N)nc2ccc(-c3cccc(NS(=O)(=O)c4ccc(C)cc4)c3)nc12 |  | >20 µM |
| C=CCCc1nc(N)nc2ccc(-c3ccc(F)cc3)nc12 |  | >20 µM |
| Cc1ccc(Sc2ccccc2)c(Nc2ncnc3nc(CC(C)C)ccc23)c1 | MTT | 7.5 µM |
| COc1ccccc1-c1cnc2nc(N)nc(N3CCOCC3)c2n1 |  | >20 µM |
| COCCCNc1s[nH]c(=O)c1C#N |  | >50 µM |
| COCCOc1nc(N)nc2ccc(-c3ccc(NC(=O)OC)cc3)nc12 |  | >20 µM |
| CCSc1ncc2c(Nc3cc(C)ccc3Sc3ccc(O)cc3)ncnc2n1 | MTT | 46.9 µM |
| N#Cc1c(Nc2cc(Cl)c(Cl)c(Cl)c2)s[nH]c1=O |  | <50 µM |
| COc1ccc(-c2cnc3nc(N)nc(N4CCN(C(C)c5ccccc5)CC4)c3n2)cc1OC | ATP | <10 µM |
| CN1CCCC1CCNC(=O)c1ccc(-c2ccc3nc(N)nc(O[C@H]4CCOC4)c3n2)cc1 |  | >20 µM |
| Fc1ccc(-c2ccc3ncnc(NC4CC4)c3c2)cc1 |  | >20 µM |
| Nc1nc(N2CCOCC2)c2nc(-c3ccc(Cl)s3)cnc2n1 |  | <10 µM |
| Nc1nc(Cl)nc2c1ncn2[C@@H]1O[C@H](CO)[C@@H](F)[C@@H]1F |  | >10 µM |
| CC[C@@H](C)Nc1nc(N)nc2ncc(-c3ccc(OC)c(OC)c3)nc12 | ATP | >20 µM |
| CC(C)Cc1nc(N)nc2ccc(-c3ccc(F)cc3)nc12 |  | >20 µM |
| CC(Nc1nc(NCC(F)(F)F)c2nc(-c3ccc(F)cc3)cnc2n1)c1ccc(S(N)(=O)=O)cc1 | ATP | <10 µM |
| C[C@H](NP(=O)(OC[C@H]1O[C@@H](n2cnc3c(NCc4ccccc4)nc(N)nc32)[C@](C)(O)[C@@H]1O)Oc1cccc2ccccc12)C(=O)OCC(C)(C)C |  | 42 µM |
| CCOc1nc(N)nc2ccc(-c3ccc(NC(=O)[C@H](C)N)cc3)nc12 |  | >20 µM |
| CC(C)c1nc(N)nc2ccc(-c3ccc(F)cc3)nc12 |  | >20 µM |
| COC(=O)N[C@@H](C(=O)N1CCC[C@H]1C(=O)Nc1ccc(C#Cc2ccc(NC(=O)[C@@H]3CCCN3C(=O)[C@H](NC(=O)OC)c3ccccc3)cc2)cc1)c1ccccc1 | resazurin | >10 µM |
| CN(C)c1ncnc2ccc(-c3ccc(F)cc3)cc12 |  | >20 µM |
| COc1ccc(-c2cnc3nc(N)nc(N4CCN(CCc5ccccc5)CC4)c3n2)cc1OC | ATP | 10–20 µM |
| CCC(=O)Nc1ccc(-c2ccc3nc(N)nc(NCCS(C)(=O)=O)c3n2)cc1 |  | >20 µM |
| COc1cc(Cc2cnc(/N=C3\C(=O)N(CN4CCN(c5cc6c(cc5F)c(=O)c(C(=O)O)cn6C5CC5)CC4)c4ccc(F)cc43)nc2N)cc(OC)c1OC |  | >50 µg/mL |
| N#Cc1c(Nc2cccc(Cl)c2Cl)s[nH]c1=O |  | >50 µM |
| C[C@@]1(O)[C@H](O)[C@@H](CO)O[C@H]1n1ccc(N)nc1=O |  | >50 µg/mL |
| Nc1nc(N2CCOCC2)c2nc(-c3ccccc3C(F)(F)F)cnc2n1 |  | <10 µM |
| O=C(O[C@@H]1Cc2c(O)cc(O)cc2O[C@@H]1c1cc(O)c(O)c(O)c1)c1ccccc1 | MTS | >1000 µM |
| Cc1ccc(Sc2ccc(NS(C)(=O)=O)cc2)c(Nc2ncnc3nc(C(C)C)ccc23)c1 | MTT | >50 µM |
| CC(=O)Nc1ccc(-c2ccc3nc(N)nc(N4CCN(C)CC4)c3c2)cc1 |  | 10–20 µM |
| Cc1ccc(Sc2ccccc2)c(Nc2ccnc3nc(C)ccc23)c1 | MTT | 8.6 µM |
| Cc1ccc(S(=O)(=O)Nc2cc(-c3ccc(S(C)(=O)=O)cc3)sc2C(=O)O)c(C)c1 |  | >200 µM |
| N#Cc1c(NCC2CCCO2)s[nH]c1=O |  | >50 µM |
| COc1cc(Cc2cnc(/N=C3\C(=O)N(CN4CCN(c5c(F)cc6c(=O)c(C(=O)O)cn(C7CC7)c6c5OC)CC4C)c4ccc(F)cc43)nc2N)cc(OC)c1OC |  | <50 µg/mL |
| CCOc1cccc(-c2cnc3nc(N)nc(N4CCOCC4)c3n2)c1 |  | 10–20 µM |
| CN(C)[C@H](Cc1ccccc1)C(=O)N1CCC[C@H]1C(=O)Nc1ccc(C#Cc2ccc(NC(=O)[C@@H]3CCCN3C(=O)[C@@H](Cc3ccccc3)N(C)C)cc2)cc1 | resazurin | >10 µM |
| CC(C)(C)C(=O)OCOP(=O)(CC[C@H]1O[C@@H](n2ccc(=O)[nH]c2=O)[C@](C)(F)[C@@H]1O)OCOC(=O)C(C)(C)C | absorbance | >10 µM |
| COC(=O)c1ccccc1Nc1s[nH]c(=O)c1C#N |  | >50 µM |
| O=C1CN(C(C(=O)N2CCC[C@H]2C(=O)Nc2ccc(C#Cc3ccc(NC(=O)[C@@H]4CCCN4C(=O)C(c4ccccc4)N4CCNC(=O)C4)cc3)cc2)c2ccccc2)CCN1 | resazurin | >10 µM |
| Nc1nc(C2CC2)c2nc(-c3ccc(F)cc3)ccc2n1 |  | 10–20 µM |
| COc1cc(Cc2cnc(/N=C3\C(=O)N(CN4CCN(c5cccc(C(F)(F)F)c5)CC4)c4ccc(F)cc43)nc2N)cc(OC)c1OC |  | <50 µg/mL |
| CC(C)(CN1CCCC1)NC(=O)c1ccc(-c2ccc3nc(N)nc(O[C@H]4CCOC4)c3n2)cc1 |  | >20 µM |
| CCOc1nc(N)nc2ncc(-c3ccc(F)cc3)nc12 | ATP | >20 µM |
| N#Cc1c(Nc2ccc(C(F)(F)F)cc2)s[nH]c1=O |  | >50 µM |
| CC(C)(C)C(=O)OCOP(=O)(CC[C@H]1O[C@@H](n2cnc3c(N)ncnc32)[C@](C)(F)[C@@H]1O)OCOC(=O)C(C)(C)C | absorbance | >10 µM |
| COc1ccc(-c2cnc3nc(N)nc(N4CCN(C(=O)NCc5ccc(F)cc5)CC4)c3n2)cc1OC | ATP | <10 µM |
| CC1CCC(C(=O)N(c2cc(C#CC(C)(C)C)sc2C(=O)O)N(C)C2CCN(C)CC2)CC1 |  | >44 µM |
| O=C(Nc1ccc(C#Cc2ccc(NC(=O)[C@@H]3CCCN3C(=O)[C@@H](c3ccccc3)N3CCC(O)CC3)cc2)cc1)[C@@H]1CCCN1C(=O)[C@@H](c1ccccc1)N1CCC(O)CC1 | resazurin | >10 µM |
| COc1ccc(-c2cnc3nc(N)nc(N4CCOCC4)c3n2)cn1 |  | >20 µM |
| Cc1nc(N)nc2ccc(-c3ccc(F)cc3)nc12 |  | <10 µM |
| COc1nc(N)nc2ncc(-c3ccc(F)cc3)nc12 |  | >20 µM |
| CS(=O)(=O)N[C@@H](C(=O)N1CCC[C@H]1C(=O)Nc1ccc(C#Cc2ccc(NC(=O)[C@@H]3CCCN3C(=O)[C@H](NS(C)(=O)=O)c3ccccc3)cc2)cc1)c1ccccc1 | resazurin | >10 µM |
| Nc1nc(O[C@@H]2CCOC2)c2nc(-c3ccc(NC(=O)[C@H]4CCNC4)c(F)c3)ccc2n1 |  | >20 µM |
| C[C@@H]1[C@H](n2ccc(N)nc2=O)O[C@@](CO)(N=[N+]=[N-])[C@H]1O | MTS | >100 µM |
| O=C(Nc1ccc(/C=C/c2ccc(NC(=O)[C@@H]3CCCN3C(=O)Cc3ccccc3)cc2)cc1)[C@@H]1CCCN1C(=O)Cc1ccccc1 | resazurin | >10 µM |

Repeating the final 4 entries:

SMILES	read by	value
CS(=O)(=O)N[C@@H](C(=O)N1CCC[C@H]1C(=O)Nc1ccc(C#Cc2ccc(NC(=O)[C@@H]3CCCN3C(=O)[C@H](NS(C)(=O)=O)c3ccccc3)cc2)cc1)c1ccccc1	resazurin	>10 µM
Nc1nc(O[C@@H]2CCOC2)c2nc(-c3ccc(NC(=O)[C@H]4CCNC4)c(F)c3)ccc2n1		>20 µM
C[C@@H]1[C@H](n2ccc(N)nc2=O)O[C@@](CO)(N=[N+]=[N-])[C@H]1O	MTS	>100 µM
O=C(Nc1ccc(/C=C/c2ccc(NC(=O)[C@@H]3CCCN3C(=O)Cc3ccccc3)cc2)cc1)[C@@H]1CCCN1C(=O)Cc1ccccc1	resazurin	>10 µM